From patent publication US20080114054A1, “Compositions and methods for reducing antimicrobial resistance of microbes” (priority 2006, published 2008)
Like-named read-outs stand apart in the source and are kept apart here.

Tests used:
[1] = system: Yerssinia; assay: Inhibition zone of Yerssinia colonies exposed to composition of Table 1 in presence of antibiotics; format: cell-based; conditions: composition listed in Table 1 in presence of the antibiotic; for Colonies showing decrease in inhibition zone / Colonies showing increase in inhibition zone / Colonies with no change in inhibition zone: 30 colonies; for Percent colonies showing increase in inhibition zone (%): of 30 tested colonies
[2] = system: Brucella; format: cell-based; conditions: composition listed in Table 1 in presence of the antibiotic; for Colonies showing decreasing inhibition zone / Colonies showing increasing inhibition zone / Colonies with no change in inhibition zone: 30 colonies; for Percent colonies showing increase in inhibition zone (%): of 30 tested colonies

Row | Compound | Colonies showing decrease in inhibition zone ([1]; 1 h) | Colonies showing increase in inhibition zone ([1]; 1 h) | Colonies with no change in inhibition zone ([1]; 1 h) | Percent colonies showing increase in inhibition zone (%) ([1]; 1 h) | Colonies showing increase in inhibition zone ([1]; 2 h) | Percent colonies showing increase in inhibition zone (%) ([1]; 2 h) | Colonies showing decreasing inhibition zone ([2]; 1 h) | Colonies showing increasing inhibition zone ([2]; 1 h) | Colonies with no change in inhibition zone ([2]; 1 h) | Percent colonies showing increase in inhibition zone (%) ([2]; 1 h) | Colonies showing decreasing inhibition zone ([2]; 2 h) | Colonies showing increasing inhibition zone ([2]; 2 h) | Colonies with no change in inhibition zone ([2]; 2 h) | Percent colonies showing increase in inhibition zone (%) ([2]; 2 h) | Colonies showing decrease in inhibition zone ([1]; 2 h) | Colonies with no change in inhibition zone ([1]; 2 h)
1 | O=C(O)c1cn(C2CC2)c2cc(N3CCNCC3)c(F)cc2c1=O [CIP, Ciprofloxacin] | 0 | 29 | 1 | 96.7 | 22 | 73.3 | – | – | – | – | – | – | – | – | – | –
2 | CO/N=C(\C(=O)N[C@@H]1C(=O)N2C(C(=O)O)=C(CSc3nc(=O)c(=O)[nH]n3C)CS[C@H]12)c1csc(N)n1 [Cro, Ceftriaxone] | – | – | – | – | – | – | 0 | 27 | 3 | 90.0 | 0 | 27 | 3 | 90.0 | – | –
3 | NC[C@H]1O[C@H](O[C@H]2[C@H](O)[C@@H](O[C@H]3O[C@H](CO)[C@@H](O)[C@H](N)[C@H]3O)[C@H](N)C[C@@H]2N)[C@H](O)[C@@H](O)[C@@H]1O [K, Kanamycin] | 2 | – | 5 | 76.7 | – | 80.0 | – | – | – | – | – | – | – | – | 4 | 2
4 | CCn1cc(C(=O)O)c(=O)c2ccc(C)nc21 [NA, Nalidixic acid] | 5 | 18 | 7 | 60.0 | 22 | 73.3 | – | – | – | – | – | – | – | – | 4 | 4
5 | CC1COc2c(N3CCN(C)CC3)c(F)cc3c(=O)c(C(=O)O)cn1c23 (centres unmarked) [OFX, Ofloxacin] | 3 | 27 | 0 | 90.0 | 24 | 80.0 | – | – | – | – | – | – | – | – | 5 | 1
6 | CO[C@H]1/C=C/O[C@@]2(C)Oc3c(C)c(O)c4c(O)c(c(/C=N/N5CCN(C)CC5)c(O)c4c3C2=O)NC(=O)/C(C)=C\C=C\[C@H](C)[C@H](O)[C@@H](C)[C@@H](O)[C@@H](C)[C@H](OC(C)=O)[C@@H]1C [RA, Rifampicin] | – | – | – | – | – | – | 0 | 30 | 0 | 100 | 3 | 27 | 0 | 90.0 | – | –
7 | CN(C)[C@@H]1C(O)=C(C(N)=O)C(=O)[C@@]2(O)C(O)=C3C(=O)c4c(O)cccc4[C@@](C)(O)[C@H]3C[C@@H]12 [TE, Tetracycline] | – | – | – | – | – | – | 0 | 20 | 10 | 66.7 | 1 | 20 | 9 | 66.7 | – | –
8 | Trimethoprim-Sulfamethoaxzole [SXT] | 1 | 17 | 12 | 56.7 | 16 | 53.3 | 0 | 30 | 0 | 100 | 0 | 30 | 0 | 100 | 6 | 8
